Pooled drug test results. Numbers come from NIAID ChemDB, via PubChem.

Shared fields: whole-cell or culture tests; agent: HIV-1

Rows are shuffled and stem from different studies. An empty or dashed field is not shown. ECn is the concentration giving n% inhibition of infection, replication or growth. a–b is a range or a potency band.

compound,strain,mutations,measure,read by,cell line,result
CC(C)CN(C[C@@H](O)[C@H](Cc1ccccc1)NC(=O)[C@@H](NC(=O)CNCc1cccc(F)c1)C(C)(C)C)S(=O)(=O)c1cccc(N)c1,HXB2,,EC90,p24,MT-4,0.0053 µM
Cc1nc2ccccc2n1C1CCN(CC[C@H](NC(=O)C2CCC2)c2ccccc2)CC1,BAL R5,,EC50,,PM1,<0.073 µM
O=[N+]([O-])c1c(-c2ccccc2)n(COCCO)c2ccccc12,,,EC50,,MT-4,>154 µM
O=S1(=O)[C@H](Cc2ccccc2)[C@H](OCc2cncs2)[C@H](O)[C@@H](O)[C@@H](OCc2cncs2)[C@H]1Cc1ccccc1,IIIB,,EC50,cytopathic effect / XTT,MT-2,<2 µM
C[C@H]1[C@H](CO)C=C[C@@H]1n1cnc2c(N)ncnc21,,,EC50,,MT-4,>100 µg/mL
Cc1nc(CO[C@@H]2[C@H](O)[C@@H](O)[C@@H](OCc3csc(C)n3)[C@@H](Cc3ccccc3)S(=O)(=O)[C@@H]2Cc2ccccc2)cs1,IIIB,,EC50,cytopathic effect / XTT,MT-2,10–50 µM
CCCN(C)c1nc(N)nc2c1ncn2[C@H]1C[C@H](N=[N+]=[N-])[C@@H](CO)O1,IIIB,,EC50,cytopathic effect,MT-4,12 µM
Cc1cn([C@@H]2O[C@H](CO[Si](C)(C)C(C)(C)C)C3(OS(=O)(=O)C=C3N)[C@H]2O[Si](C)(C)C(C)(C)C)c(=O)n(C)c1=O,IIIB,RT-Y181C,EC50,syncytia,CEM,3.3 µM
Nc1nc(NC2CCC2)c2ncn([C@H]3CO[C@@H](CO)O3)c2n1,LAI,,EC50,RT activity,PBMC,2.2 µM
Cc1nc2ccccc2n1C1(C)CCN(CC[C@H](NC(=O)C2CCC2)c2ccccc2)CC1,BAL R5,,EC50,,PM1,<0.14 µM
COc1ccc(CN[C@@H](C(=O)N[C@H]2c3ccccc3C[C@H]2O)[C@H](O)[C@H](Cc2ccccc2)NC(=O)[C@@H](NC(=O)OCc2ccccc2)C(C)(C)C)cc1,IIIB,,EC50,p24,Primary T4 cells + T4,0.035 µM
COC1CN2CN(CC3CC3)C(=O)c3c(O)c(=O)c(C(=O)NCc4ccc(F)cc4F)c1n32,NL4-3,,EC50,fluorescence,MT4-GFP,0.0014 µM
C[C@H]1C[C@]1(Cn1cnc2cnc(N)nc21)OCP(=O)(O)O,NL4-3,,EC50,plaque count,HT4 + HeLa,>100 µM
CCNc1nc(N)nc2c1ncn2[C@H]1CO[C@@H](CO)O1,LAI,,EC50,RT activity,PBMC,0.41 µM
COc1cc2c(c(OC)c1OC)-c1c(cc3c(c1OC)OCO3)[C@H](OC(C)=O)[C@H](C)[C@H](C)C2,,,EC50,MTT,C8166,17.4 µg/mL
Nc1nc(N)c2ncn([C@H]3CO[C@@H](CO)O3)c2n1,,,EC50,,MT-2,2.1 µM
C/C(=C\C#N)c1cc(C)c(Nc2ccnc(Nc3ccc(C#N)cc3)n2)c(C)c1,,RT-L100I K103N,EC50,cytopathic effect / MTT,MT-4,0.0251 µM
CCOCn1c(Cc2cc(C)cc(C)c2)c(CC)c(=O)[nH]c1=O,IIIB,,EC50,syncytia,CEM,0.009 µM
O=c1[nH]cnc2c1ncn2[C@H]1CC[C@@H](CO)O1,006,,EC50,p24,PBMC,2.2 µM
CCCOc1nc(N)nc2c1ncn2[C@H]1C[C@H](N=[N+]=[N-])[C@@H](CO)O1,IIIB,,EC50,cytopathic effect,MT-4,9 µM
Cc1cn([C@H]2C[C@H](N=[N+]=[N-])[C@@H](CO)O2)c(=O)[nH]c1=O,,,EC50,cytopathic effect / MTT,MT-4,0.0022 µg/mL
CN(C)c1ccc(CNC(=O)[C@@H](NC(=O)c2ccccc2-c2ccccc2)[C@@H]2N[C@@H](C(=O)NCCNC(=O)[C@@H]3N[C@@H]([C@H](NC(=O)c4ccccc4-c4ccccc4)C(=O)NCc4ccc(N(C)C)cc4)SC3(C)C)C(C)(C)S2)cc1,RF,,EC50,cytopathic effect / MTT,MT-4,0.01 µM
Nc1ccn([C@H]2CC[C@@H](CO)O2)c(=O)n1,IIIB,,EC50,MTT,MT-4,0.0774 µg/mL
CCn1c(=O)c(C)cn([C@@H]2O[C@H](CO[Si](C)(C)C(C)(C)C)C3(OS(=O)(=O)C=C3N)[C@H]2O[Si](C)(C)C(C)(C)C)c1=O,IIIB,RT-Y181C,EC50,syncytia,CEM,>75 µM
Cc1cn([C@H]2C[C@H](N=[N+]=[N-])[C@@H](CO)O2)c(=O)[nH]c1=O,006,,EC50,p24,PBMC,0.009 µM
O=S1(=O)[C@H](Cc2ccccc2)[C@H](OCc2ccccc2)[C@H](O)[C@@H](O)[C@H](OCc2ccccc2)[C@H]1Cc1ccccc1,IIIB,,EC50,cytopathic effect / XTT,MT-2,<2 µM
Nc1ccn([C@@H]2C=C(F)[C@H](CO)S2)c(=O)n1,xxBRU WT,,EC50,RT activity,PBMC,<1.7 µM
CN[C@@H]1[C@H](O[C@@H]2OC[C@@H](O)[C@H](O)[C@H]2O)[C@@H](O)[C@H](O[C@H]2c3cc(C)c(C(=O)N[C@H](C)C(=O)O)c(O)c3-c3c(cc4c(c3O)C(=O)c3cc(OC)cc(O)c3C4=O)[C@@H]2O)O[C@@H]1C,BZ163 R5 CLADE F,,EC50,p24,PBMC,11 µg/mL
O=c1[nH]cnc2c1ncn2[C@H]1CC[C@@H](CO)O1,,,EC90,,MT-2,18 µM
C[C@H]1C[C@]1(Cn1cnc2cnc(N)nc21)OCP(=O)(OCOC(=O)C(C)(C)C)OCOC(=O)C(C)(C)C,NL4-3,,EC50,plaque count,HT4 + HeLa,<100 µM
O=S1(=O)[C@H](Cc2ccccc2)[C@H](OCc2ccccc2)[C@H](O)[C@@H](O)[C@@H](OCc2ccccc2)[C@@H]1Cc1ccccc1,IIIB,,EC50,cytopathic effect / XTT,MT-2,10–50 µM
O=c1[nH]c(=O)n(COCCO)c2c1Nc1ccccc1S2,,,EC50,cytopathic effect / MTT,MT-4,23 µg/mL
CC(C)(C)OC(=O)N[C@@H](Cc1ccccc1)[C@H](O)CNC[C@@H](O)[C@H](Cc1ccccc1)NC(=O)OC(C)(C)C,RF,,EC50,cytopathic effect / XTT,CEM + CEM-SS,0.05 µM
Nc1ccn([C@H]2C=C[C@@H](CO)O2)c(=O)n1,LAV,,EC50,RT activity,PBMC,0.005 µM
CC(C)(C)NC(=O)[C@@H]1C[C@@H]2CCCC[C@@H]2CN1C[C@@H](O)[C@H](Cc1ccccc1)NC(=O)[C@H](CC(N)=O)NC(=O)c1ccc2ccccc2n1,RF,,EC50,cytopathic effect / XTT,CEM + CEM-SS,0.006 µM
Cc1cn([C@H]2C[C@H](N=[N+]=[N-])[C@@H](CO)O2)c(=O)[nH]c1=O,,,EC50,MTT,C8166,0.00203 µg/mL
Nc1c(-c2ccccc2)n(COCCO)c2ccccc12,,,EC50,,MT-4,>105 µM
Fc1cccc(F)c1[C@@H]1SCc2nc3ccccc3n21,RF,,EC50,cytopathic effect,MT-4,1 µM
C/C=C(/C)C(=O)OC1c2cc3c(c4c2[C@](C(=O)C(=O)OC)(CO4)/C(=C\C(=O)OC)C[C@@H](C)[C@H]1C)OCO3,,,EC50,MTT,C8166,19.9 µg/mL
O=[N+]([O-])c1ccc(CO[C@@H]2[C@H](O)[C@@H](O)[C@@H](OCc3ccc([N+](=O)[O-])cc3)[C@@H](Cc3ccccc3)S(=O)(=O)[C@@H]2Cc2ccccc2)cc1,IIIB,,EC50,cytopathic effect / XTT,MT-2,2–10 µM
Cc1c(Sc2ccccc2)n(COCCO)c(=O)[nH]c1=O,,,EC50,ELISA,MT-4,53 µM
Nc1ccn([C@H]2CC[C@@H](CO)O2)c(=O)n1,LAV,,EC50,RT activity,PBMC,0.011 µM
Cc1nc(N)nc2c1ncn2[C@H]1C[C@H](N=[N+]=[N-])[C@@H](CO)O1,IIIB,,EC50,cytopathic effect,MT-4,>200 µM
CN(C)c1ccc(CNC(=O)[C@@H](NC(=O)Cc2ccccc2)[C@@H]2N[C@@H](C(=O)NCCNC(=O)[C@@H]3N[C@@H]([C@H](NC(=O)Cc4ccccc4)C(=O)NCc4ccc(N(C)C)cc4)SC3(C)C)C(C)(C)S2)cc1,RF,,EC50,cytopathic effect / MTT,MT-4,0.01 µM
[N-]=[N+]=N[C@H]1C[C@H](n2cnc3c(NC4CCC4)nc(N)nc32)O[C@@H]1CO,IIIB,,EC50,cytopathic effect,MT-4,16 µM
CC(C)=CCN1Cc2cc(Cl)cc3[nH]c(=S)n(c23)C[C@@H]1C,,RT-M41L T215Y K101E,EC50,,MT-4,<3 µM
COc1cc(OC)cc(Sc2c(C3CC3)c(=O)[nH]c(=O)n2COCc2ccccc2)c1,,K103N,EC50,MTT,MT-4,29.74 µM
Cc1cc(CC#N)cc(C)c1Nc1ccnc(Nc2ccc(C#N)cc2)n1,,RT-Y188L,EC50,cytopathic effect / MTT,MT-4,0.251 µM
Nc1nc2c(ncn2[C@H]2CO[C@@H](CO)O2)c(=O)[nH]1,,,EC90,,MT-2,1.5 µM
O=C(O)c1cc(-c2ccc(/C=C3\SC(=S)N(c4cccc(F)c4)C3=O)o2)ccc1Cl,IIIB,,EC50,p24,MT-2,0.868 µM
CC(=O)c1cn(COCCO)c2ccccc12,,,EC50,,MT-4,>200 µM
Cc1[nH]c(=O)[nH]c(=O)c1COCc1ccccc1,,,EC50,ELISA,MT-4,>53 µM
CC1CNC(=O)c2ccccc2SSc2ccccc2C(=O)N1,IIIB,,EC50,,PBMC,1.8–6.5 µg/mL
Nc1nc(N)c2ncn([C@H]3CO[C@@H](CO)O3)c2n1,LAI,,EC50,RT activity,PBMC,6.9 µM
Nc1nc(=O)n([C@@H]2C=C(F)[C@H](CO)S2)cc1F,3TC-resistant (RT M184V),RT-M184V,EC90,RT activity,PBMC,>100 µM
CCCCNc1nc(N)nc2c1ncn2[C@H]1C[C@H](N=[N+]=[N-])[C@@H](CO)O1,IIIB,,EC50,cytopathic effect,MT-4,29 µM
Cc1c(Cc2ccccc2)c(=O)[nH]c(=O)n1COCc1ccccc1,,,EC50,ELISA,MT-4,20 µM
CC(C)Nc1cccnc1N1CCN(C(=O)c2cc3ccccc3[nH]2)CC1,IIIB,RT-E138K,EC50,syncytia,CEM,0.18 µM
O=[N+]([O-])c1cccc(CO[C@@H]2[C@H](O)[C@@H](O)[C@@H](OCc3cccc([N+](=O)[O-])c3)[C@@H](Cc3ccccc3)S(=O)[C@@H]2Cc2ccccc2)c1,IIIB,,EC50,cytopathic effect / XTT,MT-2,<2 µM
COCCN1CN2C(=O)OCc3c(C(=O)NCc4ccc(F)cc4F)c(=O)c(O)c(n32)C1=O,NL4-3,,EC50,fluorescence,MT4-GFP,0.0198 µM
[N-]=[N+]=N[C@H]1C[C@H](n2cnc3c(Oc4ccccc4)nc(N)nc32)O[C@@H]1CO,IIIB,,EC50,cytopathic effect,MT-4,43 µM
O=S1(=O)[C@H](Cc2ccccc2)[C@H](OCc2cccnc2)[C@H](O)[C@@H](O)[C@@H](OCc2cccnc2)[C@H]1Cc1ccccc1,IIIB,,EC50,cytopathic effect / XTT,MT-2,<2 µM
Nc1nc(NCc2ccccc2)c2ncn([C@H]3CO[C@@H](CO)O3)c2n1,LAI,,EC50,RT activity,PBMC,44.9 µM
CC(C)CN(C[C@@H](O)[C@H](Cc1ccccc1)NC(=O)[C@H](CC(N)=O)NC(=O)c1ccc2ccccc2n1)C(=O)NC(C)(C)C,RF,,EC50,cytopathic effect / XTT,CEM + CEM-SS,0.06 µM
CCOCn1c(Cc2ccccc2)c(C(C)C)c(=O)[nH]c1=O,IIIB,RT-Y181C,EC50,cytopathic effect / MTT,MT-4,44 µM
CC(C)(C)C(=O)OCOP(=O)(COC1(Cn2cnc3cnc(N)nc32)CC1)OCOC(=O)C(C)(C)C,NL4-3,,EC50,plaque count,HT4 + HeLa,<10 µM
COC1CN2CN(C)C(=O)c3c(O)c(=O)c(C(=O)NCc4ccc(F)cc4F)c1n32,NL4-3,,EC50,fluorescence,MT4-GFP,0.004 µM
COC1=C(OC)C(=O)C23COc4c5c(cc(c42)[C@@H](OC(=O)c2ccccc2)[C@@H](C)[C@@H](C)CC3=C1)OCO5,,,EC50,MTT,C8166,22.1 µg/mL
Cc1ccnc2c1NC(=O)c1cccnc1N2C1CC1,,RT-Y188L,EC50,cytopathic effect / MTT,MT-4,>10 µM
Cc1c(Cc2ccccc2)c(=O)n(Cc2ccccc2)c(=O)n1Cc1ccccc1,,,EC50,ELISA,MT-4,>53 µM
Cc1cn([C@H]2C[C@H](N=[N+]=[N-])[C@@H](CO)O2)c(=O)[nH]c1=O,214,,EC50,cytopathic effect / XTT,CEM + CEM-SS,0.0009 µM
[N-]=[N+]=N[C@H]1C[C@H](n2cnc3c(NC4CC4)nc(N)nc32)O[C@@H]1CO,IIIB,,EC50,cytopathic effect,MT-4,18 µM
COc1nc(N)nc2c1ncn2[C@H]1CO[C@@H](CO)O1,LAI,,EC50,RT activity,PBMC,3.8 µM
Cc1ccc2c(c1)Sc1c(c(=O)[nH]c(=O)n1COCc1ccccc1)N2,,,EC50,cytopathic effect / MTT,MT-4,>1.9 µg/mL

Repeating the final 8 entries:

compound	strain	mutations	measure	read by	cell line	result
COC1CN2CN(C)C(=O)c3c(O)c(=O)c(C(=O)NCc4ccc(F)cc4F)c1n32	NL4-3		EC50	fluorescence	MT4-GFP	0.004 µM
COC1=C(OC)C(=O)C23COc4c5c(cc(c42)[C@@H](OC(=O)c2ccccc2)[C@@H](C)[C@@H](C)CC3=C1)OCO5			EC50	MTT	C8166	22.1 µg/mL
Cc1ccnc2c1NC(=O)c1cccnc1N2C1CC1		RT-Y188L	EC50	cytopathic effect / MTT	MT-4	>10 µM
Cc1c(Cc2ccccc2)c(=O)n(Cc2ccccc2)c(=O)n1Cc1ccccc1			EC50	ELISA	MT-4	>53 µM
Cc1cn([C@H]2C[C@H](N=[N+]=[N-])[C@@H](CO)O2)c(=O)[nH]c1=O	214		EC50	cytopathic effect / XTT	CEM + CEM-SS	0.0009 µM
[N-]=[N+]=N[C@H]1C[C@H](n2cnc3c(NC4CC4)nc(N)nc32)O[C@@H]1CO	IIIB		EC50	cytopathic effect	MT-4	18 µM
COc1nc(N)nc2c1ncn2[C@H]1CO[C@@H](CO)O1	LAI		EC50	RT activity	PBMC	3.8 µM
Cc1ccc2c(c1)Sc1c(c(=O)[nH]c(=O)n1COCc1ccccc1)N2			EC50	cytopathic effect / MTT	MT-4	>1.9 µg/mL